PubChem BioAssay AID504761 – Drosophila RNAi Screening Center | 2011
Assay: 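Insect host genes that dengue virus relies on to spread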 (primary screen). Cell system: D.Mel-2 cells from Drosophila. Reagent: long dsRNA against Drosophila genes. Challenge: infection with dengue virus type 2; dose and infection time not stated. Read-out: 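Cells stained for dengue envelope protein and imaged; percent of infected cells per well on duplicate plates, ranked by infection, with stained nuclei counted for cell number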. Reading the numbers: infection score: higher = more virus-infected cells; cell count: higher = more cells in the well. Call rule: 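Low infection ranks in the two replicates (chance level up to 0.065) followed by a retest with a 1.5-fold or larger significant decrease, p below 0.05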. Meaning of the calls: active = confirmed: knock-down lowers infection; inactive = not picked or not confirmed.
In all, the deposit lists about 22,000 reagents; below is an unselected part of those with a known target gene and a result. Of all reagents, 116 (0.52%) got an active call. 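Calls depend on retest data that are not deposited; infection was ranked per plate without normalising between plates; the unit of the infection score is not given.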 The raw values are shown without normalisation. Unmarked entries are inactive. Reagents against one gene are numbered here. Names joined by + are all predicted targets of the reagent. Not stated in the record: the amount of reagent, the time to read-out.

The opening 6 records, ahead of the listing:
gene knocked down,reagent,"infection score, replicate 1","infection score, replicate 2","cell count, replicate 1","cell count, replicate 2"
CG8132,1,8.56,4.65,6417,7405
CG6785,1,10.9,2.82,6120,5963
CG6785,2,8.2,7.14,6046,6342
gt,1,0.83,1.64,6652,6697
gt,2,7.49,9.34,5248,2579
CG18744,1,12.8,12.6,4915,6038

The listing, from the start:
gene knocked down,reagent,"infection score, replicate 1","infection score, replicate 2","cell count, replicate 1","cell count, replicate 2"
CG8132,1,8.56,4.65,6417,7405
CG6785,1,10.9,2.82,6120,5963
CG6785,2,8.2,7.14,6046,6342
gt,1,0.83,1.64,6652,6697
gt,2,7.49,9.34,5248,2579
CG18744,1,12.8,12.6,4915,6038
CG11409,1,2.09,3.63,5699,6192
CG11409,2,18.3,9.56,3559,5449
CG2218,1,6.09,16.2,6684,6720
CG2218,2,5.46,31.9,6478,5153
Fit2,1,4.63,9.25,6851,6559
Sply,1,6.25,2.59,1264,6763
Sply,2,4.55,10.3,3054,6057
CG43102,1,2.3,7.02,6740,6563
CG43102,2,2.19,0.99,6674,6548
CG43102,3,22.6,16.2,6185,5428
CG10175,1,2.32,1.78,5822,6062
CG10175,2,3.96,9.11,6490,6453
CG10175,3,2.21,15.9,6963,6068
Irc,1,9.18,7.43,6048,6583
Irc,2,14.7,4.47,6006,6598
ND-B12,1,0.89 (active),1.49,5973,6123
CG3746,1,12,6.32,6718,6808
CG3746,2,17.3,20.6,5407,2672
Skp2,1,9.56,9.45,5827,5701
Skp2,2,30.2,25.7,6059,4713
CG11267,1,0.55,2.05,6160,6200
Roc1b + Cdc5,1,1.58,2.88,6285,5754
Roc1b + Cdc5,2,1.52,5.28,6443,6195
Slimp,1,2.34,2.66,6056,5679
CG34345,1,5.76,3.42,6437,6905
Myo95E,1,1.53,6.58,6855,6234
Pi3K59F,1,6.19,4.61,6102,6080
Pi3K59F,2,10.4,13.7,3689,3784
Trx2,1,25,10.8,5583,6031
Trx2,2,18.9,4.11,4824,1751
sunn,1,1.3,3.79,5902,6361
Damm,1,10.8,11.7,6266,6551
CG3568,1,15.8,5.94,3726,6207
CG3568,2,2.79,15.5,6782,7232
CG9568,1,3.3,11.2,6544,5694
SmydA-1,1,7.21,15.5,5921,6268
Eip75B,1,1.29,2.51,6440,6760
Lip4,1,2.88,2.17,6113,6827
CG11588,1,0.28,1.03,6823,3023
CG11588,2,3.24,5.17,5860,6339
Nhe1,1,,4.74,562,738
CG33160,1,0.94,4.34,6400,5718
CG33160,2,4.83,1.8,6311,6598
Ire1,1,12.9,4.9,6324,5181
Dred,1,4.52,4.63,5952,6270
Dred,2,15.2,5.54,1803,6716
CG18480,1,7.35,7.04,6365,6306
CG18480,2,5.86,11.9,6487,6026
Dlish,1,19.1,20.1,3704,6826
CG10730,1,4.79,7.21,5928,6754
CG10730,2,1.17,2.82,5967,6125
E(spl)m4-BFM,1,1.4,3.94,6717,6468
E(spl)m4-BFM,2,3.46,11.1,7146,1430
CG14518,1,1.04,11,576,6780
CG14518,2,9.15,1.96,6415,6520
Pask,1,5.36,17.9,5728,5645
Pask,2,30.2,22.4,5855,6136
boly,1,0.66,10.1,5799,5485
CG42813 + CG42814,1,27.7,4.96,5976,7325
CG42813 + CG42814,2,2.86,3.4,6982,1442
Fer2,1,12.1,5.67,5463,6309
CG42671,1,9.79,6.69,1205,6651
CG42671,2,4.37,2.04,5651,5932
CG42671,3,1.65,9.4,6735,6396
CG1529,1,2.61,1.56,6278,5820
CG1529,2,7.09,3.27,5965,6169
TrxT,1,0.91,1,6483,7218
CG14286,1,4.96,2.34,6579,6316
CG14286,2,,,342,264
